Only a part is listed here, and it is no random draw. Calls of active or inactive are those of the source. Cut-off read from the data, not from the text of the source: active = inhibition above about 33%; inactive = the rest.
molecular target: Lytic switch protein BZLF1 (Epstein-Barr virus (strain B95-8)) (UniProt P03206); test: Zta-DNA interaction blockers, Epstein-Barr virus – biochemical, fluorescence polarization, single concentration, counter-screen for EBNA-1 inhibitor project, primary screen (AID 2234); conditions: ZTA-DNA binding, at 11 µM, stronger effect = higher value

Sequences of proteins named here, by UniProt entry; tags and fusion partners are left off. A change or cut given only in a name is not applied to a line headed by its entry.
UniProt P03206: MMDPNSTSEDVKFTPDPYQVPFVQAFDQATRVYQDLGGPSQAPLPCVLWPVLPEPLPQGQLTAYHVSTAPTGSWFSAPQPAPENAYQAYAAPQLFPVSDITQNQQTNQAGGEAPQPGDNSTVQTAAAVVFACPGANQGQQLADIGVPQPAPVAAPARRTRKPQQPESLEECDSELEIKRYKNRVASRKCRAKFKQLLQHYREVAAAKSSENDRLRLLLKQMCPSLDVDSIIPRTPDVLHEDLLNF

| Compound | inhibition |
| --- | --- |
| Nc1cccc2c([As](=O)(O)O)cccc12 | inactive: 21.1% |
| CCOP(=O)(Nc1cccc2ccccc12)OCC | inactive: -20.6% |
| COc1cc(C2NCCC3(OCCO3)C2(C)C)cc(OC)c1OC (stereo not drawn) | inactive: -8.5% |
| CS(=O)(=O)c1cc([N+](=O)[O-])c2no[n+]([O-])c2c1 | inactive: 1% |
| O=P(Nc1nccs1)(Oc1ccccc1)Oc1ccccc1 | inactive: 8.5% |
| O=P(Nc1nccs1)(c1ccccc1)c1nc2ccccc2s1 (stereo not drawn) | inactive: -4.88% |
| CCOP1(=S)c2c(C)nn(CCC#N)c2N=C(c2ccccc2F)N1C (stereo not drawn) | inactive: 8.49% |
| Nc1ccccc1[As](=O)(O)c1ccccc1 | inactive: 7.03% |
| O=C(O)COc1ccc([As](=O)(O)O)cc1[N+](=O)[O-] | inactive: -18.7% |
| NC(=O)Nc1ccc([As](=O)(O)O)cc1 | inactive: -4.99% |
| CN(C(=O)Cc1ccc(Cl)c(Cl)c1)[C@H]1CC[C@@]2(CCCO2)C[C@@H]1N1CCCC1 | inactive: 11.8% |
| O=[N+]([O-])c1ccc2c(c1)nnn2O | inactive: 16.3% |
| CN(C)C(=O)c1cc([N+](=O)[O-])cc2c1-c1c(cc([N+](=O)[O-])cc1[N+](=O)[O-])C2=O | inactive: 3.68% |
| CN(C(=O)Cc1ccccc1)[C@@H]1CC[C@]2(CCCO2)C[C@H]1N1CCCC1 | inactive: -12% |
| CCOP1(=S)c2c(C)nn(CCC#N)c2N=C(c2ccc(F)cc2)N1C (stereo not drawn) | inactive: -9.34% |
| N#CCCN(C(=O)COC(=O)C(O)(c1ccccc1)c1ccccc1)c1ccc(F)cc1 | inactive: 4.61% |
| COc1cc(C(=O)NCC2(N3CCOCC3)CCCCC2)ccc1OCC(C)C | inactive: 3.51% |
| O=[As](O)(c1ccc(O)cc1)c1ccccc1O | inactive: -4.91% |
| C[As](=O)(O)c1cccc(C(=O)O)c1 | inactive: -2.53% |
| Cc1ccc2nc3c(c(C)c2c1)CC(C(Cl)Cl)S3 (stereo not drawn) | inactive: -9.84% |
| Cc1ccc(OP(=O)(Nc2ccc([N+](=O)[O-])cn2)Oc2ccc(C)cc2)cc1 | inactive: -6.19% |
| CC(C)c1ccc(OP(=O)(Nc2ccccn2)Oc2ccccc2F)cc1 (stereo not drawn) | inactive: -14.6% |

| Compound | inhibition |
| --- | --- |
| ClCCSc1nnc(-c2cccnc2)o1 | inactive: -2.13% |
| O=[N+]([O-])c1cc([N+](=O)[O-])c(-c2ccn[nH]2)s1 | inactive: -17.8% |
| CC(C)NC(=O)NP(=O)(Oc1ccccc1)Oc1ccccc1 | inactive: -6.35% |
| CCN(CC)C(=S)SC(NC=O)C(Cl)(Cl)Cl (stereo not drawn) | inactive: -5.92% |
| Cc1cc(=O)[nH]c(N[N+](=O)[O-])n1 | inactive: 12.8% |
| O=C(OC1CN2CCC1CC2)C12CC3CC(CC(C3)C1)C2 (stereo not drawn) | inactive: -9.17% |
| Cc1c2c(nc3ccccc13)SC(C(Cl)Cl)C2 (stereo not drawn) | inactive: -2.39% |
| COc1cc(I)ccc1[As](=O)(O)O | inactive: -9% |
| COc1ccc2nc(NP(=O)(c3ccccc3)c3ccccc3)sc2c1 | inactive: 5.47% |
| COc1ccc(N/C(=N/P(=O)(N2CCOCC2)N2CCOCC2)N2CCOCC2)cc1 | inactive: -6.09% |
| COP1(=S)c2c(C)nn(CCC#N)c2N=C(c2ccc(F)cc2)N1C (stereo not drawn) | inactive: -15.4% |
| O=C(Nc1ccncc1[N+](=O)[O-])c1ccc([N+](=O)[O-])cc1[N+](=O)[O-] | inactive: 5.5% |
| O=C(COc1ccccc1)OC1CN2CCC1CC2 (stereo not drawn) | inactive: 0.25% |
| CCOC(=O)c1ccc(NC(=O)C(C)(CCl)SC)cc1 (stereo not drawn) | inactive: -9.02% |
| O=C(OC1CN2CCC1CC2)c1cccc([N+](=O)[O-])c1 (stereo not drawn) | inactive: 9.26% |
| CCC(C)N(CC(C)C)C(=S)SC(NC(C)=O)C(Cl)(Cl)Cl (stereo not drawn) | inactive: 3.86% |
| CCOC(=O)Nc1ccc([As](=O)(O)O)c(O)c1 | inactive: 8.53% |
| Cc1cc(SC(NC(=O)c2ccccc2)C(Cl)(Cl)Cl)nc(C(C)C)n1 (stereo not drawn) | inactive: 9.12% |
| CCOC(=O)Nc1cccc([As](=O)(O)O)c1 | inactive: 1.44% |
| O=P(Nc1ccccn1)(c1cccc2ccccc12)c1cccc2ccccc12 | inactive: 10.5% |
| Cc1cc(SC(NC=O)C(Cl)(Cl)Cl)ncn1 (stereo not drawn) | inactive: -5.67% |

Reference: PubChem BioAssay AID2234 (The Scripps Research Institute Molecular Screening Center, 2010)
